Experimental findings from PubChem BioAssay AID493033 (ICCB-Longwood Screening Facility, Harvard Medical School, 2011) are described below.

By UniProt entry, the sequences of proteins in these tests, tags left out.
UniProt P9WFX0, whole entry: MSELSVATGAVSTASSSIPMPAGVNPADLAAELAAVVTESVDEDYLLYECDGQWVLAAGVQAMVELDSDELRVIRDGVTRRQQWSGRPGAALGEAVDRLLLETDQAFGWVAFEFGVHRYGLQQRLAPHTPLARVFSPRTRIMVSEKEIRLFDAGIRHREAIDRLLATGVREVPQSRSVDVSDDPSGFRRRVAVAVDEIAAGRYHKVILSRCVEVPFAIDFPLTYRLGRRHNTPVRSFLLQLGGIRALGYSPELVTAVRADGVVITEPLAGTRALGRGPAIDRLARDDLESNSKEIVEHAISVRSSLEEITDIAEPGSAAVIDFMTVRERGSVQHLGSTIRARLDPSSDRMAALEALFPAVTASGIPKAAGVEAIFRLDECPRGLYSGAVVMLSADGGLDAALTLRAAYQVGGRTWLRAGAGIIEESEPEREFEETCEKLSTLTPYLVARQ

For orientation: inhibition means the change of the read-out against control, counted positive when it falls.

Only a part is listed here, and it is no random draw. Activity calls are given as the source filed them. No stated cut-off is given here; in the data, active means inhibition mostly above about 56% (no sharp cut-off); inactive means mostly below about 77%.

The target of the assay is Salicylate synthase (Mycobacterium tuberculosis (strain CDC 1551 / Oshkosh)) (UniProt P9WFX0). The assay can be described thus: inhibitors of M. tuberculosis MbtI – biochemical, fluorescence intensity, primary screen (AID 493033). Particulars: purified MbtI enzyme, fluorescence intensity read-out; active compounds read high; concentration not given here.
With `NC(=O)C1(Nc2ccccc2)CCN(Cc2ccccc2)CC1`, the inhibition is inactive: -7.85%.

With `O=C1CCN(CCc2ccccc2)CC1`, the inhibition is inactive: -6.9%.

For `CN1CCC(Nc2ccc(F)cc2)CC1`, the inhibition was inactive: -22.9%.

For the compound `O=C(NCC1(N2CCOCC2)CCCCC1)c1cc2ccccc2cc1O`, the inhibition is inactive: -29.4%.

In the case of `CCCN1CCC(Nc2cc(OC)cc(OC)c2)CC1`, the inhibition is inactive: 2.95%.

As for `Cc1c(C(=O)NCC2(N3CCOCC3)CCCCC2)oc2c(Cl)cccc12`, the inhibition was inactive: -5.1%.

As to `CC1CN(Cc2ccccc2)CCC1=O` (configuration not stated), the inhibition was inactive: -2.35%.

Turning to `CCN1CCC(Nc2ccc(F)cc2)CC1`, the inhibition is inactive: -18.5%.

`CC1CN(C)C(C)CC1Nc1ccccc1` (configuration not stated): the inhibition is inactive: -13.4%.

As for `CN(C)c1ccc(C(=O)NCC2(N3CCCCC3)CCCCC2)cc1`, the inhibition was inactive: 2.75%.

`CCOc1ncccc1C(=O)NCC1(N(C)C)CCCCC1`: the inhibition was inactive: 4.5%.

As for `O=C(NCC1(N2CCCCC2)CCCCC1)c1n[nH]c2ccccc12`, the inhibition is inactive: 165%.

Take `CCOc1ncccc1C(=O)NCC1(N2CCCCC2)CCCCC1`: the inhibition is inactive: 16.1%.

Consider `CCCN1CCC(Nc2ccc(OC)c(OC)c2)CC1`, for which the inhibition is inactive: -15.2%.

`COc1ccc(C(=O)NCC2(N3CCCCC3)CCCCC2)cc1`: the inhibition was inactive: -5.65%.

In the case of `N#CC1(Nc2ccccc2)CCN(Cc2ccccc2)CC1`, the inhibition is inactive: 0.2%.

For `Cc1cnc(C(=O)NCC2(N3CCCCC3)CCCCC2)cn1`, the inhibition was inactive: -17.6%.

With `O=C1CCN(Cc2ccccc2)CC1`, the inhibition was inactive: 4.8%.

On to `O=C(NCC1(N2CCOCC2)CCCCC1)c1ccc2nc[nH]c2c1`, for which the inhibition is inactive: -11.9%.

Regarding `CCOC(=O)N1CCC(Nc2ccc(F)cc2)CC1`, the inhibition was inactive: -31.2%.

With `CCOC(=O)N1CCC(Nc2cccc(C)c2)CC1`, the inhibition was inactive: -19.9%.

For the compound `Cn1nc(C(=O)NCC2(N3CCCCC3)CCCCC2)c2ccccc2c1=O`, the inhibition was inactive: -3.6%.

For the compound `CC(C)(C)OC(=O)N1CCC(Nc2ccc(OC(F)(F)F)cc2)CC1`, the inhibition was inactive: 5.6%.

For `FC(F)(F)Oc1ccc(NC2CCNCC2)cc1`, the inhibition was inactive: 1.75%.

Regarding `NC(=O)C1(Nc2ccc(F)cc2)CCNCC1`, the inhibition is inactive: -0.85%.

In the case of `c1ccc(CN2CCC(Nc3ccc4c(c3)OCO4)CC2)cc1`, the inhibition is inactive: -132%.

Regarding `Cc1ccc(C(=O)NCC2(N(C)C)CCCCC2)o1`, the inhibition is inactive: 0.9%.
